From patent US8993542B2, “Methods of treating viral infections” (priority 2008, dated 2015)
Entries after “also recorded” stand apart in the source; their conditions may differ.

System: HIV-1IIIB
Assay: Resistance selection by serial passage in CEM-SS cells
Assay type: cell-based
Method: In vitro studies designed to select CMX157 resistant mutants use wild-type HIV-1 as the primary inoculum and TFV as a positive control. These studies are conducted by serial passage of HIV-1IIIB and HIV-1RF in CEM-SS cells using increasing concentrations of TFV or CMX157. Drug levels are increased following detection of viral growth at each passage using procedures known to one skilled in the art. Upon completion of each passage, the reverse transcriptase coding region of the viral genome is sequenced to identify any possible resistance-associated mutations that may have emerged within the virus pool.

C[C@H](Cn1cnc2c(N)ncnc21)OCP(=O)(O)O [TFV, (R)-9-(2-phosphonylmethoxypropyl)adenine]
Mutations Observed in RT of Passaged Virus (Passage 1, Tenofovir 10 μM (2× IC50)): None
Mutations Observed in RT of Passaged Virus (Passage 2, Tenofovir 20 μM (4× IC50)): None
Mutations Observed in RT of Passaged Virus (Passage 3, Tenofovir 30 μM (6× IC50)): None
Mutations Observed in RT of Passaged Virus (Passage 4, Tenofovir 40 μM (8× IC50)): None
Mutations Observed in RT of Passaged Virus (Passage 5, Tenofovir 40 μM (8× IC50)): None
Mutations Observed in RT of Passaged Virus (Passage 6, Tenofovir 40 μM (8× IC50)): None
Mutations Observed in RT of Passaged Virus (Passage 7, Tenofovir 45 μM (9× IC50)): E300D mix (minor
Mutations Observed in RT of Passaged Virus (Passage 8, Tenofovir 50 μM (10× IC50)): E404D mix (minor); also recorded: G436E mix (minor)
Mutations Observed in RT of Passaged Virus (Passage 9, Tenofovir 55 μM (11× IC50)): K65R mix (equal); also recorded: E404D mix (major); also recorded: G436E mix (minor)
Mutations Observed in RT of Passaged Virus (Passage 10, Tenofovir 60 μM (12× IC50)): K65R mix (major); also recorded: E404D mix (minor); also recorded: G436E mix (minor)
